A mixed list of measured activities; the numbers were collected in NIAID ChemDB.

All rows: cytotoxicity tests; cells: HepG2; read by: MTT; read-out: CC50

Conditions beyond the fields shown may differ between rows. CCn is the concentration with n% toxicity to the cells.

structure,result
COc1ccc(-n2c(O)c(/C=C3\C=CC=N3)c(=O)[nH]c2=O)cc1,>160 µg/mL
OCCc1ccc(O[C@@H]2O[C@H](CO)[C@@H](O)[C@H](O)[C@H]2O)c(O)c1,11.09 µM
C=C(C)[C@@H]1CCC2[C@]3(CC[C@]4(C)[C@@H]([C@H](C)CC/C=C(/C)C(=O)O)CC[C@@]24C)C[C@]13CCC(=O)O,15.79 µM
OCCc1ccc(O)c(O[C@@H]2O[C@H](CO)[C@@H](O)[C@H](O)[C@H]2O)c1,8.63 µM
O=C(N/N=C/c1ccc(N2CCOCC2)o1)c1ccncc1,>80 µg/mL
CC1=CCC(C(C)C2=CC[C@]3(C)C(=C2C)C[C@]2(O)C=C4C=CC(=O)OC(C)(C)C4[C@H](O)CC23)OC1=O,20.03 µM
O=c1[nH]c(=S)[nH]c(O)c1C=Nc1cc(Cl)ccc1O,103.1 µg/mL
C[C@H]1[C@H](O)[C@@H](C)/C=C/C=C/C=C/C=C/C=C/C=C/C=C/[C@H](O[C@@H]2O[C@H](C)[C@@H](O)[C@H](N)[C@@H]2O)C[C@@H]2O[C@](O)(C[C@@H](O)C[C@@H](O)CC[C@H](O)[C@@H](O)C[C@@H](O)CC(=O)O[C@H]1C)C[C@H](O)[C@H]2C(=O)O,2.06 µg/mL
O=c1nc(N2CCN(CC3CCCCC3)CC2)sc2c([N+](=O)[O-])cc(C(F)(F)F)cc12,18.98 µg/mL
OCCc1ccc(O)c(O)c1,10.1 µM
CN(C)C(=S)Oc1ccc(Cl)cc1C(=O)Nc1ccc(Br)cc1,85.64 µM
COc1cc(/C=C/C(=O)O[C@H]2[C@H](O)[C@@H](OC3OCC(O)(CO)C3O)[C@H](OCCc3ccc(O)cc3)O[C@@H]2CO)ccc1O,9.04 µM
O=C(NCC(c1cccs1)N1CCCCC1)c1cccs1,>80 µg/mL
CC[C@@]1(O)C(=O)OCc2c1cc1n(c2=O)Cc2cc3ccccc3nc2-1,0.0327 µg/mL
Cc1cc(/C=C2\SC(=O)NC2=O)c(C)n1C1CCCCC1,>160 µg/mL
Cc1cc(=O)c2c(O)c3c(O)cc(=O)c4c3c3c(cc(O)c1c23)C(C)(C)C=4O,>80 µg/mL
CN(C)C(=S)Oc1ccc(Cl)cc1C(=O)Nc1ccc(F)cc1,116.8 µM
Cc1ccc(N=Cc2ccc([N+](=O)[O-])s2)cc1[N+](=O)[O-],>80 µg/mL
O=C(Nc1ccc(F)cc1)c1cc(Cl)ccc1OC(=O)N(c1ccccc1)c1ccccc1,>100 µM
Cc1ccc(NC2=CC(=O)c3ccccc3C2=O)cc1,>20 µg/mL
C=C1C(C(C)C2CC=C(C)C(=O)O2)=CC[C@]2(C)C1C[C@]1(O)C=C3C=CC(=O)OC(C)(C)C3CCC21,1.22 µM
CO[C@H]1C=CC2=CCN3CCc4cc5c(cc4[C@]23C1)OCO5,17.6 µg/mL
CN(C)C(=S)Oc1ccccc1C(=O)Nc1ccccc1,>500 µM
O=c1cc(N2CCN(Cc3ccccc3)CC2)sc2c([N+](=O)[O-])cc(C(F)(F)F)cc12,>64 µg/mL
CN(C)C(=O)Oc1ccc(Cl)cc1C(=O)Nc1ccc(Br)cc1,342.5 µM
C/C(=C/CC[C@@H](C)[C@H]1CC[C@@]2(C)C3CCC4C(C)(C)C(=O)CC[C@@]45CC35CC[C@]12C)C(=O)O,36.67 µM
O=C(N[C@H](CO)Cc1ccccc1)/C(NC(=O)c1ccc(Cl)cc1Cl)=C(/Br)c1ccccc1,>100 µM
O=C(Nc1ccc(Br)cc1)c1cc(Cl)ccc1OC(=O)N(c1ccccc1)c1ccccc1,>100 µM
COc1cc2c(cc1O)C(OC)CN1CC=C3C=C[C@H](OC)C[C@]321,11.4 µg/mL

For reference, 2 entries again:

O=C(NCC(c1cccs1)N1CCCCC1)c1cccs1 ; result: >80 µg/mL
CC1=CCC(C(C)C2=CC[C@]3(C)C(=C2C)C[C@]2(O)C=C4C=CC(=O)OC(C)(C)C4[C@H](O)CC23)OC1=O ; result: 20.03 µM